Source: US7786054B2, “Biocide for well stimulation and treatment fluids” (Kemira Chemicals, Inc., priority 2006, dated 2010)
“Also recorded” adds a separate entry of the source.

Key:
[1] = Effect of heat (180° F.) on viscosity of biocide/polymer fluids; details: 500 ppm biocide, FIG. 4
[2] = Friction loop compatibility of biocide with anionic friction reducer; details: total biocide loading 1000 ppm; FIG. 6

O=CCCCC=O [Glut, glutaraldehyde]
polymer viscosity after four hours at temperature ([1]; 180° F. for 4 hours): maintained nearly all its viscosity | polymer viscosity at the eight-hour mark ([1]; 180° F. for 8 hours): only slightly reduced viscosity | % FR relative to control, 150 to 420 second time interval [2]: remained even with that of the blank sample; also recorded: no effect on the performance of the polymer
